Tested on: mitochondria of HeLa cells
Assay: Intracellular localization by immunofluorescence and immunoelectron microscopy
Format: cell-based, human

B1: pUL37Smyc: pUL37S fused at its C-terminus with a c-myc-epitope tag; constitutively expressed in HeLa/UL37x1#3 cells (protein)
chain: MSPVYVNLLGSVGLLAFWYFSYRWIQRKRLEDPLPPWLRKKKACALTRRSRHRLRRQHGVIDGENSETERSVDLVAALLAEAGEESVTEDTEREDTEEEREDEEEENEARTPEVNPIDAEGLSGLAREACEALKKALRRHRFLWQRRQRARMLQHNGPQQSHQ
HeLa/pUL37Smyc cells
  subcellular association by immunoelectron microscopy: associated mainly with the outer mitochondrial membrane
immunofluorescence, 9E10 anti-myc antibody, transiently transfected HeLa cells
  co-localization with mitochondrial markers: localized predominantly to mitochondria

Reference: patent US6605426B1, “Compounds, methods of screening, and in vitro and in vivo uses involving anti-apoptotic genes and anti-apoptotic gene products” (priority 1998, dated 2003)
